The source of these data is patent publication US20170021005A1 (YALE UNIVERSITY, published 2017).

The test concerns the target T1, CdtB (subunit of typhoid toxin, as in the crystal structure; 6×His tagged) (Salmonella enterica serovar Typhi, UniProt Q8Z6A7 23-269).
T1 sequence: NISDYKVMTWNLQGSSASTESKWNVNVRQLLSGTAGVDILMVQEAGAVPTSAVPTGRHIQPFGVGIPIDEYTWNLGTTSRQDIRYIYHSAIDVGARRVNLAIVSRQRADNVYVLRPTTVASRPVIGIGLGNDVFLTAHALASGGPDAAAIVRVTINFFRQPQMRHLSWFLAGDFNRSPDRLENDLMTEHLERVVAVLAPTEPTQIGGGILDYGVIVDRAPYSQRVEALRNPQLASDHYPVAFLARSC
Nature of the test: crystal structure of typhoid toxin.

B1: PltB pentamer (B subunit of typhoid toxin, as in the crystal structure) (other)
chain: EWTGDNTNAYYSDEVISELHVGQIDTSPYFCIKTVKANGSGTPVVACAVSKQSIWAPSFKELLDQARYFYSTGQSVRIHVQKNIWTYPLFVNTFSANALVGLSSCSATQCFGPK
For the molecule B1, the binding result is reported as “no binding”.
